Measured values from several laboratories, pooled; numbers as filed in NIAID ChemDB.

All rows: growth or infection tests; organism: Candida albicans

An empty or dashed field is not shown. a–b is a range or a potency band. ECn is the concentration giving n% inhibition of infection, replication or growth. Zones are inhibition diameters on agar. A number after MIC or MFC names an inhibition level or a share of isolates. Rows are shuffled and stem from different studies.

| SMILES | strain or isolate | mutations | read by | setting | endpoint | tested at | result |
|---|---|---|---|---|---|---|---|
| Clc1ccc(COC(Cn2ccnc2)c2ccc(Cl)cc2Cl)c(Cl)c1 | ICB 12 | - | broth dilution | - | MIC100 | - | 32 µg/mL |
| O=Cc1ccco1 | ATCC 90028 | - | broth dilution | - | MIC99.9 | - | 1000 µg/mL |
| COc1cc(OC)c(OC)cc1C=O | ATCC 90028 | - | broth dilution | - | MIC99.9 | - | 8000 µg/mL |
| Cc1c(N2C[C@@H](C)N[C@@H](C)C2)c(F)cn2c(=O)c(C(=O)O)cc(C3CC3)c12.Cl | CCH442 | - | - | - | MIC | - | >100 µg/mL |
| O=[N+]([O-])c1cc(C[Se]c2nnnn2Cc2ccccc2)cc([N+](=O)[O-])c1 | ATCC 44859 | - | broth dilution | 48 h | EC80 | - | >500 µM |
| C[C@@H]([C@H]1CC[C@H](C)C(=O)C1)[C@H]1CC[C@]2(C)C3=C(CC[C@@]12C)[C@]1(C)CC[C@H](O)C(C)(C)[C@H]1CC3 | MTCC 183 | - | agar diffusion / agar | - | zone | 2 µg/disc | 19 mm |
| COCOCC1CCCN(c2c(F)cn3c(=O)c(C(=O)O)cc(C4CC4)c3c2C)C1.Cl | CCH442 | - | - | - | MIC | - | >100 µg/mL |
| CCC(C)n1ncn(-c2ccc(N3CCN(c4ccc(OC[C@H]5CO[C@](Cn6cncn6)(c6ccc(Cl)cc6Cl)O5)cc4)CC3)cc2)c1=O | 4054 strains (fluconazole-susceptible) | - | - | - | MIC90 | - | 0.12 µg/mL |
| Cc1c(N2CCC(N(C)C)CC2)c(F)cn2c(=O)c(C(=O)O)cc(C3CC3)c12 | CCH442 | - | - | - | MIC | - | >100 µg/mL |
| COc1ccc(/C=C2\SC(N(C)C)=NC2=O)cc1 | ATCC 10231 | - | broth dilution | - | MIC100 | - | >250 µg/mL |
| CC(C)[C@@H]1CC[C@@H](C)C[C@H]1O | ATCC 90028 | - | broth dilution | - | MIC99.9 | - | >8000 µg/mL |
| O=[N+]([O-])c1cc(CSc2nnnn2C2CCCCC2)cc([N+](=O)[O-])c1 | ATCC 44859 | - | broth dilution | 48 h | EC80 | - | >500 µM |
| CCC(C)CC(C)CCCCCCCCC(=O)NC1CC(O)CNC(=O)C2C(O)CCN2C(=O)C(C(O)CC(N)=O)NC(=O)C(C(O)Cc2ccc(OP(=O)([O-])[O-])cc2)NC(=O)C2CC(O)CN2C(=O)C(C(C)O)NC1=O.[Na+].[Na+] | MY1208 | - | - | - | MFC | - | 2 µg/mL |
| CN(C)C1=NC(=O)/C(=C/c2ccc(F)cc2)S1 | ATCC 10231 | - | broth dilution | - | MIC100 | - | >250 µg/mL |
| COc1ccc2c(c1OC)C[N+]1(Cc3ccccc3[N+](=O)[O-])CCc3cc4c(cc3C1C2)OCO4.[Br-] | Clinical isolate | Fluconazole-resistant | broth dilution | - | MIC80 | - | >64 µg/mL |
| c1ccc(-c2c(C(c3ccccc3)n3ccnc3)cnn2-c2ccccc2)cc1 | - | - | - | - | MBC | - | 100 µM |
| COc1cccc(C[N+]2=Cc3cc4c(cc3CC2)OCO4)c1OC.[Br-] | Clinical isolate | Fluconazole-resistant | broth dilution | - | MIC80 | - | >64 µg/mL |
| CCc1cc(C(=O)O)c(=O)n2cc(F)c(N3CCC(N)C3)c(C)c12.Cl | CCH442 | - | - | - | MIC | - | >100 µg/mL |
| C[C@H]1[C@H](O)[C@@H](C)/C=C/C=C/C=C/C=C/C=C/C=C/C=C/[C@H](O[C@@H]2O[C@H](C)[C@@H](O)[C@H](N)[C@@H]2O)C[C@@H]2O[C@](O)(C[C@@H](O)C[C@@H](O)CC[C@H](O)[C@@H](O)C[C@@H](O)CC(=O)O[C@H]1C)C[C@H](O)[C@H]2C(=O)O | - | - | - | - | MBC | - | 3.7 µM |
| O=[N+]([O-])c1cc(C[Se]c2nnnn2C2CCCCC2)cc([N+](=O)[O-])c1 | ATCC 44859 | - | broth dilution | 24 h | EC80 | - | >500 µM |
| CC(C)CCOc1ccc(C2CC(=O)c3c(O)cc(O)cc3O2)cc1 | ATCC 14053 | - | agar diffusion / agar | - | zone | 100 µg/mL | 0 mm |
| C=CC(C)(O)CCC=C(C)C | ATCC 90028 | - | broth dilution | - | MIC50 | - | 8000 µg/mL |
| Clc1ccc(-c2c(C(c3ccccc3)n3ccnc3)cnn2-c2ccc(Cl)cc2)cc1 | - | - | - | - | MBC | - | 66.6 µM |
| O=C(NCCc1ccc2c(c1)OCO2)NC1CCCCC1 | Clinical isolate | Fluconazole-resistant | broth dilution | - | MIC80 | - | >64 µg/mL |
| CCO[C@@H]1C[C@@H]([C@H](C)[C@H]2CC[C@]3(C)C4=C(CC[C@@]23C)[C@]2(C)CC[C@H](O)C(C)(C)[C@H]2CC4)CC[C@@H]1C | MTCC 183 | - | agar diffusion / agar | - | zone | 3 µg/disc | 20 mm |
| Cc1c(N2CCC[C@H](N)C2)c(F)cn2c(=O)c(C(=O)O)cc(C3CC3)c12 | CCH442 | - | - | - | MIC | - | >100 µg/mL |
| CN(C/C=C/C#CC(C)(C)C)Cc1cccc2ccccc12 | CI-2 | - | - | - | MIC90 | - | 4 µg/mL |
| C[C@@H]1[C@H](O)[C@@H](C)/C=C/C=C/CC/C=C/C=C/C=C/C=C/C(O[C@H]2O[C@H](C)[C@@H](O)[C@H](N)[C@@H]2O)CC2O[C@](O)(CC(O)C(O)CCC(O)CC(O)CC(O)CC(=O)O[C@H]1C)CC(O)C2C(=O)O | ATCC 14053 | - | agar diffusion / agar | - | zone | 100 µg/mL | 0 mm |
| CC(C)=CCCC(C)CCO | ATCC 90028 | - | broth dilution | - | MIC50 | - | 4000 µg/mL |
| CCC(C)n1ncn(-c2ccc(N3CCN(c4ccc(OC[C@H]5CO[C@](Cn6cncn6)(c6ccc(Cl)cc6Cl)O5)cc4)CC3)cc2)c1=O | Isogenic isolate 12 (25X) | - | - | - | MIC | - | 0.03 µg/mL |
| CN(C/C=C/C#CC(C)(C)C)Cc1cccc2ccccc12 | ATCC 10231 | - | broth dilution | - | MIC100 | - | 1.56 µg/mL |
| COc1ccc2c(Cc3ccccc3F)c3[n+](cc2c1OC)CCc1cc2c(cc1-3)OCO2.[Br-] | Clinical isolate | Fluconazole-resistant | broth dilution | - | MIC80 | - | 64 µg/mL |
| c1ccc2[nH]ccc2c1 | ATCC 90028 | - | broth dilution | - | MIC50 | - | 500 µg/mL |
| CCCC(N)C1CCN(c2c(F)cn3c(=O)c(C(=O)O)cc(C4CC4)c3c2C)C1.Cl | CCH442 | - | - | - | MIC | - | 50 µg/mL |
| CC(C)[C@]12CC(=O)[C@H](C)[C@H]1C2 | ATCC 90028 | - | broth dilution | - | MIC99.9 | - | >8000 µg/mL |
| CCC(C)CC(C)CCCCCCCCC(=O)N[C@H]1C[C@@H](O)[C@H](NCCN)NC(=O)[C@@H]2[C@@H](O)CCN2C(=O)[C@H]([C@H](O)CCN)NC(=O)[C@H]([C@H](O)[C@@H](O)c2ccc(O)cc2)NC(=O)[C@@H]2C[C@@H](O)CN2C(=O)[C@H]([C@@H](C)O)NC1=O | - | - | - | - | Geometric mean MIC | - | 0.32 µg/mL |
| Nc1nc(=O)n([C@H]2CS[C@@H](CO)O2)cc1F | 4054 strains (fluconazole-susceptible) | - | - | - | MIC90 | - | 1 µg/mL |
| C=CCOc1ccc(C2CC(=O)c3c(O)cc(O)cc3O2)cc1 | ATCC 10231 | - | agar diffusion / agar | - | zone | 100 µg/mL | 0 mm |
| COc1cc(C[C@H](C)[C@H](C)Cc2ccc(O)c(O)c2)ccc1O | CCC 130-2000 | - | broth dilution | - | MIC50 | - | 62.5 µg/mL |
| O=[N+]([O-])c1cc(CSc2nnnn2Cc2ccccc2)cc([N+](=O)[O-])c1 | ATCC 44859 | - | broth dilution | 24 h | EC80 | - | >500 µM |
| Fc1ccc(C2=[N+](Cc3ccccc3)CCc3cc4c(cc32)OCO4)c(F)c1.[Br-] | Clinical isolate | Fluconazole-resistant | broth dilution | - | MIC80 | - | >64 µg/mL |
| CC(C)=CCC/C(C)=C/C=O | ATCC 90028 | - | broth dilution | - | MIC99.9 | - | 1000 µg/mL |
| COc1ccccc1C=O | 10261 | - | agar diffusion / agar | - | MIC90 | - | 500–700 µg/mL |

4 of the rows above, restated:

| SMILES | strain or isolate | mutations | read by | setting | endpoint | tested at | result |
|---|---|---|---|---|---|---|---|
| CCC(C)CC(C)CCCCCCCCC(=O)N[C@H]1C[C@@H](O)[C@H](NCCN)NC(=O)[C@@H]2[C@@H](O)CCN2C(=O)[C@H]([C@H](O)CCN)NC(=O)[C@H]([C@H](O)[C@@H](O)c2ccc(O)cc2)NC(=O)[C@@H]2C[C@@H](O)CN2C(=O)[C@H]([C@@H](C)O)NC1=O | - | - | - | - | Geometric mean MIC | - | 0.32 µg/mL |
| CC(C)=CCC/C(C)=C/C=O | ATCC 90028 | - | broth dilution | - | MIC99.9 | - | 1000 µg/mL |
| O=[N+]([O-])c1cc(CSc2nnnn2C2CCCCC2)cc([N+](=O)[O-])c1 | ATCC 44859 | - | broth dilution | 48 h | EC80 | - | >500 µM |
| CN(C/C=C/C#CC(C)(C)C)Cc1cccc2ccccc12 | CI-2 | - | - | - | MIC90 | - | 4 µg/mL |